Results taken from article PMC7762174 (Viruses, 2020).

Test system: SARS-CoV-2
Assay type: cell-based
Conditions: for Anti-SARS-CoV-2 drug efficacy on Vero cells: SI: CC50/EC50, Vero cells, RT-qPCR

Row | SMILES | Anti-SARS-CoV-2 drug efficacy on Vero cells: SI | SI (RT-qPCR/NRA) (CC50/EC50, Vero 76)
1 | COC(=O)c1c(-c2c(F)cccc2Cl)noc1-c1cnn(-c2cccc(Cl)c2)c1C(F)(F)F [IMU-CO3] | > 6.5 | 
2 | CCC(CC)COC(=O)[C@H](C)N[P@](=O)(OC[C@H]1O[C@@](C#N)(c2ccc3c(N)ncnn23)[C@H](O)[C@@H]1O)Oc1ccccc1 [RDV, remdesivir, reference compound] | > 59 | > 59
